Record: PubChem BioAssay AID624099 (ICCB-Longwood, 2012)
Assay: 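Host factors E2 relies on to silence an HPV18 LCR reporter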 (primary screen). Cell system: human C33A cervical carcinoma cells (HPV-negative) stably expressing BPV1 E2 and an HPV18 LCR luciferase reporter. Reagent: siRNA pool against human genes, 40 nM. Duration: 72 h. Measured: 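HPV18 LCR reporter light per well, converted to plate-wise z-scores that exclude control wells, and averaged over triplicate plates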. Direction: mean z-score and z-score: higher = stronger reporter signal, weaker E2 silencing. Hit rule: 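Mean z ≥ 2 together with z ≥ 2 in two or more of the three replicates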.
Shown is a random part of about 21,000 reagents tested. 497 of them (2.4%) count as active. 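Higher z means weaker E2 silencing; only reporter increases were scored, and knock-downs that hurt cell survival may mask genuine repressor factors.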 Entries without a mark were called inactive.

Gene	mean z-score	z-score, replicate A	z-score, replicate B	z-score, replicate C
TXNIP (thioredoxin interacting protein)	-1.58	-1.25	-1.72	-1.77
CNPY1 (canopy FGF signaling regulator 1)	1.42	1.64	1.1	1.52
SEPTIN11 (septin 11)	0.81	0.63	0.77	1.02
MT3 (metallothionein 3)	0.29	0.88	0.08	-0.08
GLS2 (glutaminase 2)	2.56 (active)	2.84	2.75	2.11
VN1R4 (vomeronasal 1 receptor 4)	-0.7	-0.94	-0.7	-0.47
SLC12A6	-0.5	-0.36	-0.62	-0.52
CENPP (centromere protein P)	0.23	0.58	0.04	0.07
LOC399866 (retired record)	-0.18	-0.04	-0.42	-0.08
KBTBD6 (kelch repeat and BTB domain containing 6)	-0.69	-1	-0.84	-0.23
RAB40C (RAB40C, member RAS oncogene family)	-1.7	-2.07	-1.92	-1.12
KLHL8 (kelch like family member 8)	0.42	0.87	0.29	0.1
TBKBP1 (TBK1 binding protein 1)	0.09	-0.47	-0.44	1.18
CFAP161 (cilia and flagella associated protein 161)	0.28	0.52	0.03	0.31
LUZP1 (leucine zipper protein 1)	0.38	0.41	0.37	0.35
SESN1 (sestrin 1)	0.29	0.69	0.29	-0.11
SPATA31C1 (SPATA31 subfamily C member 1)	-0.48	-0.26	-0.7	-0.48
XIAP (X-linked inhibitor of apoptosis)	-1.62	-1.53	-1.57	-1.75
C1D (C1D nuclear receptor corepressor)	1.49	1.5	1.44	1.53
PRR13 (proline rich 13)	0.84	0.86	0.86	0.79
OR51E1 (olfactory receptor family 51 subfamily E member 1)	-0.46	-0.38	-0.47	-0.53
TCL1B (TCL1 family AKT coactivator B)	0.17	0.19	0	0.31
NEUROG3 (neurogenin 3)	0.74	0.85	0.51	0.85

Reformatted: results already given.
| Gene | mean z-score | z-score, replicate A | z-score, replicate B | z-score, replicate C |
| --- | --- | --- | --- | --- |
| KLHL8 (kelch like family member 8) | 0.42 | 0.87 | 0.29 | 0.1 |
| TBKBP1 (TBK1 binding protein 1) | 0.09 | -0.47 | -0.44 | 1.18 |
| CFAP161 (cilia and flagella associated protein 161) | 0.28 | 0.52 | 0.03 | 0.31 |
| LUZP1 (leucine zipper protein 1) | 0.38 | 0.41 | 0.37 | 0.35 |
